A mixed list of measured activities; the numbers were collected in NIAID ChemDB.

Shared fields: growth or infection tests; species: HIV-1

An empty or dashed field is not shown. Two numbers with a dash give a range or band. ECn is the concentration giving n% inhibition of infection, replication or growth. Lines come from different laboratories, so protocols vary.

compound,cells,measure,method,mutations,strain or isolate,result
O=[N+]([O-])c1ccc(COc2ccccc2)cc1,C8166,EC50,syncytia,,IIIB,5.96 µg/mL
CCN(CC)S(=O)(=O)N1CCN(C(=O)C(=O)c2c[nH]c3c(C(=O)OC)ccc(F)c23)CC1,HeLa,EC50,luciferase,,Recombinant,1–5 µM
O=C(O)CCCCC(=O)OC[C@H]1O[C@@H](n2cc(-c3cccs3)c(=O)[nH]c2=O)C[C@@H]1O,MT-4,EC50,cytopathic effect / XTT,,,>100 µg/mL
CC(C)CN(C[C@@H](O)[C@H](Cc1ccccc1)NC(=O)OCc1cncs1)S(=O)(=O)c1ccc2nc(N)sc2c1,MT-4,EC50,cytopathic effect / MTT,,LAI,0.005 µM
C[C@@H]1O[C@H](CO)O[C@@H]1n1cnc2c(=O)[nH]c(N)nc21,MT-4,EC95,p24,,,>10 µM
Cc1cc(C)cc(Cc2c(I)c(=O)[nH]c(=O)n2COCc2ccccc2)c1,TZM-bl,EC50,p24 / ELISA,K103N,A17,0.035 µM
Cc1cccc(OCc2ccccc2)c1,C8166,EC50,syncytia,,IIIB,44.87 µg/mL
C(=C\c1ccc2ccccc2n1)/c1ccc2ccccc2n1,CEM-4fx,EC50,,,,>300 µM
CO[C@@H]1[C@H](O)[C@@H](CO)O[C@H]1c1ccccc1,CEM,EC50,cytopathic effect,,IIIB,>100 µg/mL
COc1ccc(OC)c(CCNC(=S)Nc2ccc(Br)cn2)c1,MT-2,EC50,MTT / absorbance,,IIIB,0.058 µM
O=C(O)C1CCC(C(=O)OC[C@H]2O[C@@H](n3cc(-c4cccs4)c(=O)[nH]c3=O)C[C@@H]2O)CC1,MT-4,EC50,cytopathic effect / XTT,,,>100 µg/mL
Clc1ccc2c(c1)nnc1c(Br)cnn12,MT-4,EC50,cytopathic effect / MTT,,IIIB,>200 µM
CCCCCCCCCCCCCCCCNC(=O)[C@@H](N)CO[C@@H]1O[C@H](CO)[C@H](O)[C@H](O)[C@H]1O,CEM + CEM-SS,EC50,RT activity,,LAI,50 µM
CC1=CCC[C@H]2[C@](C)(CC3=CC(=O)C=CC3=O)[C@@H](C)CC[C@]12C,H9,EC50,p24,,IIIB,>1 µg/mL
Nc1ccn([C@@H]2O[C@@H](CO)[C@H](O)C2(F)F)c(=O)n1,PBMC,EC50,RT activity,,LAI,>100 µM
CSc1nc(=O)n([C@H]2C[C@H](N=[N+]=[N-])[C@@H](CO)O2)cc1C,MT-4,EC50,,,,31 µM
Cc1cn([C@H]2C[C@H](O)[C@@H](COC(=O)CCCC(=O)O)O2)c(=O)[nH]c1=O,MT-4,EC50,cytopathic effect / XTT,,,>100 µg/mL
CNC(=O)c1ccc(F)c2c(C(=O)C(=O)N3CCN(S(=O)(=O)N4CCCCC4)CC3)c[nH]c12,HeLa,EC50,luciferase,,Recombinant,1–5 µM
Cc1c(O)cccc1C(=O)N[C@@H](Cc1ccccc1)[C@H](O)CN(CC(C)C)S(=O)(=O)c1ccc2nc(N)sc2c1,MT-4,EC50,cytopathic effect / MTT,PR-L10F M46I M71V I84V,F,6.31 µM
COC(=O)c1ccc(F)c2c(C(=O)C(=O)N3CCN(S(=O)(=O)N4CCC4)CC3)c[nH]c12,HeLa,EC50,luciferase,,Recombinant,>5 µM
CO[C@H]1[C@H]2O[Si](C(C)C)(C(C)C)O[Si](C(C)C)(C(C)C)OC[C@@H]2O[C@@H]1c1ccccc1,CEM,EC50,cytopathic effect,,IIIB,>4 µg/mL
Nc1ccn([C@H]2O[C@@H](CO)C=C2F)c(=O)n1,PBMC,EC50,,,,0.51 µM
Cc1nnc(C(=O)N(CCN(C)C)CC[C@@]23CC[C@]4(C)[C@H](CC[C@@H]5[C@@]6(C)CC[C@H](OC(=O)[C@H]7C[C@@H](C(=O)O)C7(C)C)C(C)(C)[C@@H]6CC[C@]54C)C2=C(C(C)C)C(=O)C3)o1,MT-2,EC50,p24 / ELISA,,92HT599,<1 µM
CC(C)CN(C[C@@H](O)[C@H](Cc1ccccc1)NC(=O)O[C@H]1CCOC1)S(=O)(=O)c1ccc2nc(N)sc2c1,MT-4,EC50,cytopathic effect / MTT,,LAI,0.003 µM
Clc1ccc2nnc3ccnn3c2c1,MT-4,EC50,cytopathic effect / MTT,,IIIB,>200 µM
CCC(C)C(=O)OC/C=C/c1c(OC)cc(OC(=O)C(C)CC)cc1OC,C8166,EC50,cytopathic effect,,,2870 µM
O=[N+]([O-])c1cnn2c1n[n+]([O-])c1cc(Cl)ccc12,MT-4,EC50,cytopathic effect / MTT,,IIIB,>1.4 µM
CC(C)C1=C2[C@H]3CC[C@@H]4[C@@]5(C)CC[C@H](OC(=O)[C@H]6C[C@@H](C(=O)O)C6(C)C)C(C)(C)[C@@H]5CC[C@@]4(C)[C@]3(C)CC[C@@]2([C@@H](O)CNCC(C)(C)NC(=O)c2ncc[nH]2)CC1=O,MT-2,EC50,p24 / ELISA,,92HT599,<1 µM
CNc1nc2ccc(S(=O)(=O)N(CC(C)C)C[C@@H](O)[C@H](Cc3ccccc3)NC(=O)O[C@H]3CO[C@H]4OCC[C@H]43)cc2s1,MT-4,EC50,cytopathic effect / MTT,,LAI,0.001 µM
C[C@H]1O[C@@H](CO)O[C@H]1n1cnc2c(N)nc(N)nc21,MT-4,EC95,p24,,,>10 µM
C=Cc1ccc2ccccc2n1,CEM-4fx,EC50,,,,7.2 µM
Cc1cn([C@@H]2O[C@@H](CO)[C@H](O[Si](C)(C)C(C)(C)C)C2(F)F)c(=O)[nH]c1=O,PBMC,EC50,RT activity,,LAV,>100 µM
CCCCCCCCCCCCCCNC(=O)[C@@H](N)CS[C@@H]1O[C@H](CO)[C@H](O)[C@H](O)[C@H]1O,CEM + CEM-SS,EC50,RT activity,,LAI,>27 µM
CN1N=C(N)c2cn([C@@H]3O[C@H](COP(=O)(O)O)[C@@H](O)[C@H]3O)c3ncnc1c23,CEM + CEM-SS,EC50,cytopathic effect / XTT,,PM16,0.11 µM
Nc1ccn([C@@H]2C=C(F)[C@H](CO)O2)c(=O)n1,PBMC,EC50,,,,0.03 µM
CC(C)(C)c1ccc(OCc2ccccc2)cc1,C8166,EC50,syncytia,,IIIB,15.48 µg/mL
COC(=O)/C=C/c1ccc2ccccc2n1,CEM-4fx,EC50,,,,>100 µM
Nc1nc2c(ccn2[C@H]2C=C[C@@H](CO)C2)c(=O)[nH]1,CEM + CEM-SS,EC50,RT activity,,LAI,15 µM
Cc1cn([C@H]2C[C@H](N=[N+]=[N-])[C@@H](CO)O2)c(=O)[nH]c1=O,TZM-bl,EC50,luciferase / luminescence,,NL4-3,0.00825 µM
CC(C)C1=C2[C@H]3CC[C@@H]4[C@@]5(C)CC[C@H](OC(=O)[C@H]6C[C@@H](C(=O)O)C6(C)C)C(C)(C)[C@@H]5CC[C@@]4(C)[C@]3(C)CC[C@@]2(CCN(CCN(C)C)Cc2cccc(Cl)c2)CC1=O,MT-2,EC50,p24 / ELISA,,92HT599,<1 µM
CCCCCCCCCCCC/C=C/c1ccc2ccccc2n1,CEM-4fx,EC50,,,,>100 µM
CCCCCCCCCCCCCCNC(=O)[C@H](CS[C@@H]1O[C@H](CO)[C@H](O)[C@H](O)[C@H]1N)NC(=O)CCCCCCCCCCC,CEM + CEM-SS,EC50,RT activity,,LAI,>22 µM
O=C(O)CCCCCC(=O)OC[C@H]1O[C@@H](n2cc(-c3cccs3)c(=O)[nH]c2=O)C[C@@H]1O,MT-4,EC50,cytopathic effect / XTT,,,>100 µg/mL
Nc1ccn([C@@H]2O[C@H](CO)C=C2F)c(=O)n1,PBMC,EC50,,,,0.37 µM
C[C@@H]1O[C@@H](CO)O[C@@H]1n1cnc2c(=O)[nH]c(N)nc21,MT-4,EC95,p24,,,>10 µM
[O-][n+]1nc2c(-c3ccc(F)cc3)cnn2c2cc(Cl)ccc21,MT-4,EC50,cytopathic effect / MTT,,IIIB,>200 µM
CC(C)C1=C2[C@H]3CC[C@@H]4[C@@]5(C)CC[C@H](OC(=O)[C@H]6C[C@@H](C(=O)O)C6(C)C)C(C)(C)[C@@H]5CC[C@@]4(C)[C@]3(C)CC[C@@]2(CC(=O)NC2(CNC(=O)c3ccc(Cl)cc3)CCCC2)CC1=O,MT-2,EC50,p24 / ELISA,,92HT599,<1 µM
Nc1ncnc2c1ncn2[C@@H]1O[C@@H](CO)[C@H](O)C1(F)F,PBMC,EC50,RT activity,,LAV,>100 µM
COC(=O)c1ccc(F)c2c(C(=O)C(=O)N3CCN(S(=O)(=O)N(C)C)CC3)c[nH]c12,HeLa,EC50,luciferase,,Recombinant,>5 µM
c1ccc2c(c1)nnc1ccnn12,MT-4,EC50,cytopathic effect / MTT,,IIIB,>200 µM
Clc1cc(CN2CCCNCCNCCCNCC2)cc(Cl)n1,HOS-CD4-CCR5 + HOS,EC50,p24,,HE R3 R5 X4,6.1 µM
Cc1cn([C@H]2O[C@@H](CO)[C@H](O[Si](C)(C)C(C)(C)C)C2(F)F)c(=O)[nH]c1=O,PBMC,EC50,RT activity,,LAV,>100 µM
CCOC(=O)c1cnn2c1nnc1cc([N+](=O)[O-])ccc12,MT-4,EC50,cytopathic effect / MTT,,IIIB,>12.7 µM
CC(C)C1=C2[C@H]3CC[C@@H]4[C@@]5(C)CC[C@H](OC(=O)[C@H]6C[C@@H](C(=O)O)C6(C)C)C(C)(C)[C@@H]5CC[C@@]4(C)[C@]3(C)CC[C@@]2([C@@H](O)CNCC(C)(C)NC(=O)c2ccc(OCCN3CCOCC3)cc2)CC1=O,MT-2,EC50,p24 / ELISA,,92HT599,<1 µM
COC(=O)C1=C2Nc3ccccc3[C@@]23CCN2C[C@]4(C[C@@H]5C[C@]67CC(=O)O[C@H]6CCC6NC[C@@]8(c9cccc(OC)c9N(C4)[C@@]58O)[C@@H]67)[C@@H]4OCC[C@]4(C1)[C@H]23,OM-10.1,EC50,luciferase,,,2.5 µM
CC(C)C1=C2[C@H]3CC[C@@H]4[C@@]5(C)CC[C@H](OC(=O)[C@H]6C[C@@H](C(=O)O)C6(C)C)C(C)(C)[C@@H]5CC[C@@]4(C)[C@]3(C)CC[C@@]2(CCNC[C@@H](NC(=O)c2ccc(Cl)cc2)C(C)O)CC1=O,MT-2,EC50,p24 / ELISA,,92HT599,<1 µM
CCCCCCCCCCCCCCNC(=O)[C@@H](N)CS[C@@H]1O[C@H](CO)[C@H](O)[C@H](O)[C@H]1NC(C)=O,CEM + CEM-SS,EC50,RT activity,,LAI,>30 µM